Results of unrelated studies side by side (data: NIAID ChemDB).

Shared fields: growth or infection tests

Fold resistance: result on the changed form divided by that on wild type. Two numbers with a dash give a range or band. ECn is the concentration giving n% inhibition of infection, replication or growth. An empty or dashed field is not shown. A number after MIC or MFC names an inhibition level or a share of isolates. Neighbouring rows are from separate reports. Inhibition is in % at the dose shown (toxicity tests: loss of growth or viability).

SMILES,method,dose,mutations,cells,setting,strain,read-out,organism,result
CC[C@H]1OC(=O)[C@H](C)[C@@H](O[C@H]2C[C@@](C)(OC)[C@@H](OC(C)=O)[C@H](C)O2)[C@H](C)[C@@H](O[C@@H]2O[C@H](C)C[C@H](N(C)C)[C@H]2OC(=O)NNCc2ccccn2)C(C)(O)C[C@@H](C)/C(=N\OCCCC2CCCCC2)[C@H](C)[C@@H](O)[C@]1(C)O,,,,,,20092 (clarithromycin-resistant),MIC,Mycobacterium avium complex,0.78 µg/mL
O=C(CC(=O)Nc1ccc(F)cc1)Nc1ccc(F)cc1,,,,,,KL21,MIC,Klebsiella pneumoniae,>300 µM
C=CCc1ccc(OC)c(OC)c1,turbidity,,,,,3056,MIC90,Candida tropicalis,340 µg/mL
CC(C)N=C(N)/N=C(\N)NOCCCOc1cc(Cl)c(Cl)cc1Cl,,,,,,F8074,MIC,Mycobacterium avium complex,16 µg/mL
C/C=C\[C@@H]1C[C@H](C(=O)O)N[C@H]1[C@@H](NC(C)=O)[C@](C)(CCC)OC,plaque count,,,MDCK,,H1N1 isolate C9C,EC50,Influenza A virus,1.25 µg/mL
O=C(NCc1ccc(Cl)cc1)c1cn2c3c(cc(CN4CCOCC4)cc3c1=O)OC(c1cccnc1)C2,plaque count,,,HFF,,13076 (WILD TYPE),EC50,Herpes simplex virus 2,5.6 µM
O=C(N[C@@H](C(=O)N1CCC[C@H]1c1ncc(-c2ccc(-c3ccc(-c4cnc([C@@H]5CCCN5C(=O)[C@H](NC(=O)C5CC5)c5ccccc5)s4)cc3)cc2)s1)c1ccccc1)C1CC1,luciferase / reporter gene,,P58S,Huh7.5,,genotype 1b,fold resistance,Hepatitis C virus,25
CC(C)(C)c1ccc(CSc2ncnc3c2ncn3[C@@H]2O[C@H](CO)[C@@H](O)[C@H]2O)cc1,,25 µM,,,,RH (WILD TYPE),inhibition,Toxoplasma gondii,52.8%
Cc1cc(O)c2c(c1Cl)C(=O)c1cn[nH]c1C2=O,,50 µM,,,,,inhibition,Cryptosporidium parvum,<10%
CCNNC(=O)O[C@H]1[C@H](O[C@@H]2[C@@H](C)[C@H](O[C@H]3C[C@@](C)(OC)[C@@H](OC(C)=O)[C@H](C)O3)[C@@H](C)C(=O)O[C@H](CC)[C@@](C)(O)[C@H](O)[C@@H](C)/C(=N/OCCCC3CCCCC3)[C@H](C)CC2(C)O)O[C@H](C)C[C@@H]1N(C)C,,,,,,20096 (clarithromycin-resistant),MIC,Mycobacterium avium complex,3.13 µg/mL
CCC(C)CC(C)CCCCCCCCC(=O)N[C@H]1C[C@@H](O)[C@H](NCCN)NC(=O)[C@@H]2[C@@H](O)CCN2C(=O)[C@H]([C@H](O)CCN)NC(=O)[C@H]([C@H](O)[C@@H](O)c2ccc(O)cc2)NC(=O)[C@@H]2C[C@@H](O)CN2C(=O)[C@H]([C@@H](C)O)NC1=O,broth dilution,,,,,CBS 11752,MIC,Cryptococcus gattii,32 µg/mL
COc1ccc(-n2c(C(=O)N[C@H](C)c3ccccc3)c3n(c2=O)CCN(C(=O)c2ccc(Br)c(Cl)c2)C3)cn1,PCR,,,HepG2.117,,,EC50,Hepatitis B virus,0.1–0.5 µM
CCc1c(O)c(=O)ccn1CC,,18 µM,,Human fibroblasts,7 d,,inhibition,Pneumocystis carinii,34%
CC(N)C12CC3CC(CC(C3)C1)C2,ELISA,,,MDCK,,H1N1 A/Victoria/36/88,EC50,Influenza A virus,0.02 µg/mL
Cn1ncc2c1C(=O)c1c(O)c3c(c(O)c1C2=O)CCCC3,,25 µM,,,,,inhibition,Cryptosporidium parvum,<10%
Nc1ncnc2c1ncn2[C@@H]1C[C@H](S)[C@@H](O)[C@H]1O,neutral red,,,CV-1,,,EC50,Measles virus,>100 µg/mL
CNc1cccc2c(S(=O)(=O)Nc3ccc(NC(=O)C(C)(C)CF)cc3)cccc12,plaque count,,,,,WILD TYPE,EC50,Mouse cytomegalovirus,0.015 µM
CO/N=C(/C(=O)N[C@@H]1C(=O)N2C(C(=O)O)=C(COC(N)=O)CS[C@H]12)c1ccco1,,,,,,434 strains,MIC90,Haemophilus influenzae,1 µg/mL
CN(C)c1cccc2c(S(=O)(=O)Nc3ccc(NC(=O)C(C)(C)CO)cc3)cccc12,plaque count,,,,,Priscott,EC50,Rat cytomegalovirus,0.019 µM
Cc1ccc(C)n1-c1ccc(C(=O)O)c(O)c1,luciferase / cell fusion,,,PBMC/5.25M7,,93UG065 X4 CLADE D,EC90,HIV-1,32.59 µM
Cc1cc(O)c2c(c1)C(=O)c1c(cnn1C)C2=O,,,,,,,EC50,Cryptosporidium parvum,>100 µM
CC[C@H]1OC(=O)[C@H](C)[C@@H](O[C@H]2C[C@@](C)(OC)[C@@H](OC(C)=O)[C@H](C)O2)[C@H](C)[C@@H](O[C@@H]2O[C@H](C)C[C@H](N(C)C)[C@H]2OC(=O)NNc2ccccc2)C(C)(O)C[C@@H](C)/C(=N\OCCCC2CCCCC2)[C@H](C)[C@@H](O)[C@]1(C)O,,,,,,20039 (clarithromycin-susceptible),MIC,Mycobacterium avium complex,0.78 µg/mL
NC[C@@H]1O[C@H](O[C@H]2[C@@H](O)[C@H](O[C@@H]3[C@@H](O)[C@H](N)C[C@H](N)[C@H]3O[C@H]3O[C@H](CO)[C@@H](O)[C@H](O)[C@H]3N)O[C@@H]2CO)[C@H](N)[C@@H](O)[C@@H]1O,,10 µM,,,,,inhibition,Cryptosporidium parvum,<10%
CC[C@H]1OC(=O)[C@H](C)[C@@H](OC(=O)Cc2ccccc2)[C@H](C)[C@@H](O[C@@H]2O[C@H](C)C[C@H](N(C)C)[C@H]2O)C(C)(O)C[C@@H](C)/C(=N\OCCCOc2ccccc2)[C@H](C)[C@@H](O)[C@]1(C)O,,,,,,20092 (clarithromycin-resistant),MIC,Mycobacterium avium complex,6.25 µg/mL
CC(=O)N[C@H]1C[C@@H](n2cnc3c(N)ncnc32)[C@H](O)[C@@H]1O,,,,HFF,,,EC50,Pichinde virus,>100 µg/mL
CC[C@H]1OC(=O)[C@H](C)[C@@H](OC2C[C@@](C)(OC)[C@@H](O)[C@H](C)O2)[C@H](C)[C@@H](O[C@@H]2O[C@H](C)C[C@H](N(C)C)[C@H]2O)C(C)(O)C[C@@H](C)/C(=N\OCCSc2ccccc2)[C@H](C)[C@@H](O)[C@]1(C)O,,,,,,20096 (clarithromycin-resistant),MIC,Mycobacterium avium complex,12.5 µg/mL
N=C(N)c1ccc2nc(-c3ccc(-c4nc5ccc(C(=N)N)cc5[nH]4)[nH]3)[nH]c2c1,,,,,,Isolate 2370 fluconazole-resistant,MFC,Candida albicans,1.56 µg/mL
Cc1ccc(-n2c(=O)oc3ccc(Br)cc3c2=S)cc1,,,,,21 d,My 235/80,MIC,Mycobacterium kansasii,4 µM
CC1(C)S[C@@H]2[C@H](NC(=O)[C@H](N)c3ccc(O)cc3)C(=O)N2[C@H]1C(=O)O,,,,,,434 strains,MIC90,Haemophilus influenzae,2 µg/mL
CC1CCC(C(=O)N(c2cc(C#CC(C)(C)C)sc2C(=O)O)C2CCC(O)CC2)CC1,luciferase,,A486V,Huh7,,H77 (GT1a),fold resistance,Hepatitis C virus,48.5
S=c1oc2ccc(Br)cc2c(=S)n1-c1ccc(Br)cc1,,,,,14 d,6509/96,MIC,Mycobacterium kansasii,4 µM
Nc1ncnc2c1ncn2[C@@H]1C=C[C@@H](O)[C@H]1O,neutral red,,,CV-1,,Edmonston,EC50,Measles virus,>64 µg/mL
CCc1c(O)c(=O)ccn1CCOC,,,,Human fibroblasts,7 d,,EC50,Pneumocystis carinii,>18 µM
Nc1ncnc2c1ncn2[C@@H]1CC[C@@H](O)[C@H]1O,neutral red,,,CV-1,,,EC50,Measles virus,<0.1 µg/mL
O=C(NNc1ccccn1)Nc1cc(C(F)(F)F)cc(C(F)(F)F)c1,,,,,,KL21,MIC,Klebsiella pneumoniae,>300 µM
[N-]=[N+]=N[C@H]1C[C@@H](n2cnc3c(N)ncnc32)[C@H](O)[C@@H]1O,virus yield,,,CV-1,,,EC50,Measles virus,11 µg/mL
O=C(Nc1cccc(C2=NCCN2)c1)Nc1cccc(C2=NCCN2)c1,,,,,,ES142,MIC,Escherichia coli,86 µM
CC[C@H]1OC(=O)[C@H](C)[C@@H](O[C@H]2C[C@@](C)(OC)[C@@H](OC(C)=O)[C@H](C)O2)[C@H](C)[C@@H](O[C@@H]2O[C@H](C)C[C@H](N(C)C)[C@H]2OC(=O)NNCc2ccccc2OC)C(C)(O)C[C@@H](C)/C(=N\OCCCC2CCCCC2)[C@H](C)[C@@H](O)[C@]1(C)O,,,,,,20092 (clarithromycin-resistant),MIC,Mycobacterium avium complex,0.39 µg/mL
Fc1ccc2oc(=S)n(-c3ccc(Cl)c(Cl)c3)c(=S)c2c1,,,,,21 d,My 235/80,MIC,Mycobacterium kansasii,4 µM
CO[C@H]1/C=C/O[C@@]2(C)Oc3c(C)c(O)c4c(O)c(c(/C=N/N5CCN(C6CCCC6)CC5)c(O)c4c3C2=O)NC(=O)/C(C)=C\C=C\[C@H](C)[C@H](O)[C@@H](C)[C@@H](O)[C@@H](C)[C@H](OC(C)=O)[C@@H]1C,,,,,,74,MIC,Mycobacterium avium intracellulare,0.125 µg/mL
COc1ccc(-n2c(C(=O)NCc3ccc(OC)c(C)c3)c3n(c2=O)CCN(C(=O)c2ccc(Cl)c(Cl)c2)C3)cc1,PCR,,,HepG2.117,,,EC50,Hepatitis B virus,0.5–5 µM
OC[C@H]1O[C@@H](n2cnc3c(SCc4ccc(OC(F)(F)F)cc4)ncnc32)[C@H](O)[C@@H]1O,,10 µM,,,,RH (WILD TYPE),inhibition,Toxoplasma gondii,35.1%
Cn1cc(C(=O)NCc2ccc(Cl)cc2)c(=O)c2cc(CN3CCOCC3)ccc21,plaque count,,,HFF,,13078 (ACV-resistant),EC50,Herpes simplex virus 2,2.3 µM
Nc1ncnc2c1ncn2[C@@H]1C[C@H](N)[C@@H](O)[C@H]1O,neutral red,,,CV-1,,Edmonston,EC50,Measles virus,40 µg/mL
CCNC(=O)[C@@H](NC(=O)Cc1ccccc1)[C@@H]1N[C@@H](C(=O)NCCNC(=O)[C@@H]2N[C@@H]([C@H](NC(=O)Cc3ccccc3)C(=O)NCC)SC2(C)C)C(C)(C)S1,,,,,,595 strains,MIC50,Streptococcus pneumoniae,≤0.06 µg/mL
Nc1ncnc2c1c(Br)cn2COCCO,virus yield,,,GPE,,Lymphotropic,EC90,Guinea pig herpesvirus,160 µg/mL
O=C1c2cccc(Cl)c2C(=O)c2cn[nH]c21,,50 µM,,,,,inhibition,Cryptosporidium parvum,99%
COCCn1ccc(=O)c(O)c1C,,,,Human fibroblasts,7 d,,EC50,Pneumocystis carinii,>18 µM
O=C(NCc1ccc(Cl)cc1)c1c[nH]c2ccc(CCCO)cc2c1=O,plaque count,,,,,NAG,EC50,Varicella zoster virus,0.1 µM
Cc1c(O)c(=O)ccn1C,,,,Human fibroblasts,7 d,,EC50,Pneumocystis carinii,>18 µM
COc1ccc2oc(=S)n(-c3cccc(Cl)c3)c(=S)c2c1,,,,,14 d,My 235/80,MIC,Mycobacterium kansasii,16 µM
CCCCCCCCCCO/N=C1\[C@H](C)CC(C)(O)[C@H](O[C@@H]2O[C@H](C)C[C@H](N(C)C)[C@H]2O)[C@@H](C)[C@H](OC2C[C@@](C)(OC)[C@@H](O)[C@H](C)O2)[C@@H](C)C(=O)O[C@H](CC)[C@@](C)(O)[C@H](O)[C@H]1C,,,,,,20096 (clarithromycin-resistant),MIC,Mycobacterium avium complex,6.25 µg/mL
O=C(NCc1ccccc1)c1c2n(c(=O)n1-c1ccc(Cl)cc1)CCN(C(=O)c1ccc(Br)c(Cl)c1)C2,PCR,,,HepG2.117,,,EC50,Hepatitis B virus,0.5–5 µM
Cc1ccc(C(C)C)cc1O,,,,,,F07,MIC,Aspergillus fumigatus,0.16 µg/mL
O=C(CC(=O)Nc1cc(C(F)(F)F)cc(C(F)(F)F)c1)Nc1cc(C(F)(F)F)cc(C(F)(F)F)c1,,,,,,KL21,MIC,Klebsiella pneumoniae,>300 µM
CN[C@H]1CC[C@@H](c2ccc(Cl)c(Cl)c2)c2ccccc21,broth dilution,,,,,C45,MIC90,Cryptococcus neoformans,2 µg/mL
CC[C@H]1OC(=O)[C@H](C)[C@@H](O[C@H]2C[C@@](C)(OC)[C@@H](OC(C)=O)[C@H](C)O2)[C@H](C)[C@@H](O[C@@H]2O[C@H](C)C[C@H](N(C)C)[C@H]2O)C(C)(O)C[C@@H](C)/C(=N\OCCCC2CCCCC2)[C@H](C)[C@@H](O)[C@]1(C)O,,,,,,20096 (clarithromycin-resistant),MIC,Mycobacterium avium complex,1.56 µg/mL
COc1ccc(CNC(=O)c2c3n(c(=O)n2-c2ccc(OCC(F)(F)F)cc2)CCN(C(=O)c2ccc(Br)c(Cl)c2)C3)c(OC)c1,PCR,,,HepG2.117,,,EC50,Hepatitis B virus,<0.1 µM

5 of the rows above, restated:

CC1CCC(C(=O)N(c2cc(C#CC(C)(C)C)sc2C(=O)O)C2CCC(O)CC2)CC1 ; method: luciferase ; mutations: A486V ; cells: Huh7 ; strain: H77 (GT1a) ; read-out: fold resistance ; organism: Hepatitis C virus ; result: 48.5
CC[C@H]1OC(=O)[C@H](C)[C@@H](O[C@H]2C[C@@](C)(OC)[C@@H](OC(C)=O)[C@H](C)O2)[C@H](C)[C@@H](O[C@@H]2O[C@H](C)C[C@H](N(C)C)[C@H]2OC(=O)NNCc2ccccc2OC)C(C)(O)C[C@@H](C)/C(=N\OCCCC2CCCCC2)[C@H](C)[C@@H](O)[C@]1(C)O ; strain: 20092 (clarithromycin-resistant) ; read-out: MIC ; organism: Mycobacterium avium complex ; result: 0.39 µg/mL
CO/N=C(/C(=O)N[C@@H]1C(=O)N2C(C(=O)O)=C(COC(N)=O)CS[C@H]12)c1ccco1 ; strain: 434 strains ; read-out: MIC90 ; organism: Haemophilus influenzae ; result: 1 µg/mL
O=C(NCc1ccc(Cl)cc1)c1cn2c3c(cc(CN4CCOCC4)cc3c1=O)OC(c1cccnc1)C2 ; method: plaque count ; cells: HFF ; strain: 13076 (WILD TYPE) ; read-out: EC50 ; organism: Herpes simplex virus 2 ; result: 5.6 µM
Cc1ccc(C)n1-c1ccc(C(=O)O)c(O)c1 ; method: luciferase / cell fusion ; cells: PBMC/5.25M7 ; strain: 93UG065 X4 CLADE D ; read-out: EC90 ; organism: HIV-1 ; result: 32.59 µM